Construct, isoform or probe ends are uncertain for at least one entry.
Key:
Assay in all cases: EMSA
[1] = molecular target: OpaR (Vibrio parahaemolyticus) (UniProt Q79YV4); conditions: recombinant protein; residues 1-204; probe letters rebuilt from the primers and the genome
[2] = system: TftR (TetR family) + OpaR; conditions: OpaR titrated at constant TftR, higher-molecular-weight complexes; recombinant protein; probe letters rebuilt from the primers and the genome
[3] = system: TftR (TetR family) (Vibrio parahaemolyticus); conditions: 0-400 nM TftR; recombinant protein; probe letters rebuilt from the primers and the genome

Sequence	binding result [1]	binding result [2]	binding result [3]
TAATTGGTGTTCTGGCCAATGGTAATTGAACGCCAAAAAAGAACGATAAAGATCAGAATTGACAATTTGTAATCCAACAATTTCCGCTTCCAGTTGCAGCGTATTCGTTTCTGGATGAAAGATGAAATGAACCTTCAAGTGATCATCAAAAGCTAAGCTTAGTTCATTGTCCGTCAAATGCAGTTCAGGCAAGCCTATTTGATGAGCAAACTTCTGTAAAACCTCATCGATAGTTTGGCGTGCTGACATAGAAACAGTCCTTTTGAGAATTTTATCGGGAAACATATTCGATATCGTGGGGTGTGTTTATCAATTTTGGTTGTTAGTTATTATATTTTGGCCGGAAACCCAGAATTGACTCCTTGCTTCTAATCTTACAAATGAGTGCTGGTGCATATAAAGATTAACGGTTATTAAATTCTATTATGGTGGGATTTTGGTTTATATCGACAAGCGATGAAGAATTAGAATTGTGTTATCTTAAAAATTAAATACTATGTTAATTACGTGTTGTACGTGGAACGTTATTGCTGTCCATCTGTAGAATAAATATAAGCCGAAAATTTAAACGTACACATAAGAATTTGTGTAAAAATAAATCATAATAAGACGATAAAAATAATTTATGGGAGCCTAAATGAAAAGCAGTAAGTGGGCCGGTCTTATCGGTTTAATGTTA (double strand) [PexsB]	binds	–	–
TCCATCGTGTTGCCGTAGCTTGATGCCGTCATAAAATCAACTTGATGAGTCAGTTCAATAGCACGCGCTAGGTCGGCCATAAATACAAAAGAACCACGCAACAAGCCAACCAAAACTAGGTCTTCACTGCCTTGGTAACGCTCTGTAATTTGTTTGCCTAATTCACGAATTCGTTCCTGAACTTCTTGCTCAGAAATCATGACTTCTATTGTATGTTTCATACTGTGCTCAATTTAGTTTGTGGGTTGAGGTAGGTCGCACGCAAACGATCACCTAATCTTACGGCGTGTAGTGTATCACCACGAAGAGTGGGTTGAAAGTCACATCCTTTTGCGGAAAATTCTTGGGAGCGCTGCCAAATTTTCGAAAGTTTACAGCAAAACTTATCAATAATAATGACATTACTGTCTATAAATTATCCATCAGATGTTGACCTTGTGCATATGCACCATTACACTCATCACTGCTTAAAGCAATTATTAAAATAATCAATTAGGGGGTTACCCCCAACAACAACTCAAATGGCAAGGAAAATGGATATGGACTCAATTGCAAAGAGACCTAGAACTAGGCTTTCTCCTCTTAAACGTAAGCAACAACTCATGGAAATCGCGTTAGAAGTATTTGCACGCCGTGGTATTGGCCGTGGTGGTCACGCAGATATTG (double strand) [PopaR]	–	binds	binds

Source: PMC12691590
